Pooled drug test results. Numbers come from NIAID ChemDB, via PubChem.

Common to all: whole-cell or culture tests; species: HIV-1; cell line: C8166; read-out: EC50

ECn: concentration that inhibits the pathogen or its effect by n%.

CCNC(=O)[C@@H](NC(=O)Cc1ccccc1)[C@@H]1N[C@@H](C(=O)NC[C@H](O)CN2C[C@H]3CCCC[C@H]3C[C@H]2C(=O)NC(C)(C)C)C(C)(C)S1 ; strain or isolate: RF ; method: syncytia ; value: 0.74 µM
CCC(=O)c1cn(S(=O)(=O)c2ccc(Cl)cc2)c2ccc(C#N)cc12 ; strain or isolate: IIIB ; method: syncytia / visual reading ; value: >200 µg/mL
CC[C@H](C)[C@H](NC(=O)[C@@H]1CCCN1[P@@](=O)(OC)[C@H](Cc1ccccc1)NC(=O)OCc1ccccc1)C(=O)NCC(C)C ; strain or isolate: RF ; value: 3 µM
Cc1cn([C@H]2C[C@H](N=[N+]=[N-])[C@@H](CO)O2)c(=O)[nH]c1=O ; strain or isolate: IIIB ; method: syncytia ; value: 0.0108 µM
CC[C@H](C)[C@H](NC(=O)[C@@H]1CCCN1P(=O)(OC)C(CC1CCCCC1)NC(=O)OCc1ccccc1)C(=O)NCC(C)C ; strain or isolate: RF ; value: 8 µM
CC(NC(=O)c1[nH]c2ccc(Cl)cc2c1S(=O)(=O)c1ccccc1)C(N)=O ; strain or isolate: EFV-resistant (RT K103R V179D P225H) ; method: p24 ; value: <3 µM
CCN1c2ncc(CCOc3ccc(C(=O)NC(C)(C)C(=O)O)cc3C)cc2C(=O)N(C)c2cccnc21 ; changes: RT-K103N Y181C ; method: p24 ; value: >0.05 µM
CCC(=O)c1cn(S(=O)(=O)c2cccc([N+](=O)[O-])c2)c2ccccc12 ; strain or isolate: IIIB ; method: syncytia / visual reading ; value: 76.8 µg/mL
Cc1cc(C)c(-n2nnnc2SCC(=O)Nc2ccc3c(c2)OCO3)c(C)c1 ; strain or isolate: RT-K103N Y181C ; changes: 1(RT-K103N Y181C) ; method: p24 ; value: ≥0.1 µM
O=S(=O)(Oc1ccc(N=Nc2ccc(N=Nc3ccc(OS(=O)(=O)c4ccc(Cl)cc4)c4ncccc34)cc2)c2cccnc12)c1ccc(Cl)cc1 ; strain or isolate: IIIB ; method: syncytia ; value: 4.01 µg/mL
CCN1c2ncc(CCOc3ccc(C(=O)Nc4ccc[n+]([O-])c4)cc3C)cc2C(=O)Nc2c(C)ccnc21 ; changes: RT-K103N Y181C ; method: p24 ; value: <0.01 µM
CCOP(=O)(OCC)OC[C@H]1O[C@@H](n2cc(C)c(=O)[nH]c2=O)C[C@@H]1N=[N+]=[N-] ; strain or isolate: RF ; method: p24 ; value: >100 µM
CC1(C)C=C2[C@H]3CC[C@@H]4[C@@]5(C)CCC(=O)C(C)(C)[C@@H]5CC[C@@]4(C)[C@]3(C)CC[C@@]2(C(=O)O)CC1 ; strain or isolate: IIIB ; method: syncytia ; value: 7.49 µM
CC[C@@H](C)[C@H](NC(=O)[C@@H]1CCCN1[P@](=O)(OC)[C@@H](Cc1ccccc1)NC(=O)[C@H](CC(N)=O)NC(=O)OC(C)(C)C)C(=O)NCC(C)C ; strain or isolate: RF ; value: >100 µM
COC(=O)CNP(=O)(NCC(=O)OC)OC[C@H]1O[C@@H](n2cc(C)c(=O)[nH]c2=O)C[C@@H]1N=[N+]=[N-] ; strain or isolate: RF ; method: antigen ; value: 0.5 µM
COc1cc([C@@H]2c3cc(O)c(OC)cc3C(=O)[C@@H](C)[C@H]2C)ccc1O ; strain or isolate: IIIB ; method: syncytia ; value: 9.18 µg/mL
COc1ccc(COc2ccccc2)cc1 ; strain or isolate: IIIB ; method: syncytia ; value: 18.14 µg/mL
CC1C(Sc2nnnn2-c2cccc3ccccc23)C1c1ccccc1Cl ; strain or isolate: WT ; method: p24 ; value: <0.05 µM
C/C(=C/[C@H]1C[C@](C)(O)C2[C@@H](C[C@@]3(C)[C@@H]4CC=C5[C@@H](C[C@H](O)[C@@H](O)C5(C)C)[C@]4(C)C(=O)C[C@]23C)O1)CO ; method: cytopathic effect / MTT ; value: 43.2 µM
CCCOP(=O)(OCCC)OC[C@H]1O[C@@H](n2cc(C)c(=O)[nH]c2=O)C[C@@H]1OCC ; strain or isolate: RF ; method: p24 ; value: >100 µM
Cc1ccc(S(=O)(=O)Oc2ccc(N=Nc3ccc(N=Nc4ccc(OS(=O)(=O)c5ccc(C)cc5)c5ncccc45)cc3)c3cccnc23)cc1 ; strain or isolate: IIIB ; method: syncytia ; value: 13.4 µg/mL
CCC(=O)c1cn(S(=O)(=O)c2ccc(Cl)cc2)c2cc(C)ccc12 ; strain or isolate: IIIB ; method: syncytia / visual reading ; value: 83.9 µg/mL
C=C(C)[C@@H]1CC[C@]2(C(=O)O)CC[C@]3(C)[C@H](CC[C@@H]4[C@@]5(C)CCC(=O)C(C)(C)[C@@H]5CC[C@]43C)[C@@H]12 ; strain or isolate: IIIB ; method: syncytia ; value: 5.81 µM
CC[C@H](C)[C@H](NC(=O)[C@H](Cc1ccccc1)NP(=O)(OC)C(N)Cc1ccccc1)C(=O)NCC(C)C ; strain or isolate: RF ; value: 20 µM
CC1=C[C@@H]([C@H]2O[C@@H]3Cc4c(ccc5c4C=C[C@H]4C(C)(C)O[C@@H]6CC(=O)O[C@@]64C5)[C@@H]3[C@@H]2C)OC1=O ; strain or isolate: IIIB ; method: syncytia ; value: 9.75 µg/mL
COC(=O)C(C)NP(=O)(OC[C@@H]1C=C[C@H](n2cc(C)c(=O)[nH]c2=O)O1)OCC(Cl)(Cl)Cl ; strain or isolate: IIIB ; method: p24 ; value: 0.2 µM
CCN1c2ncc(CCOc3cccc4c3CN(C)C(=O)N4C)cc2C(=O)N(C)c2cccnc21 ; changes: RT-K103N Y181C ; method: p24 ; value: 0.01–0.05 µM
Cc1cn([C@H]2C[C@H](N=[N+]=[N-])[C@@H](CO)O2)c(=O)[nH]c1=O ; strain or isolate: 89.6 ; method: p24 / ELISA ; value: 0.00589 µM
CC(C)(C)NC(=O)[C@@H]1C[C@@H]2CCCC[C@@H]2CN1C[C@H](O)CNC(=O)[C@@H]1N[C@@H]([C@H](NC(=O)Cc2ccccc2)C(=O)NCc2ccccc2)SC1(C)C ; strain or isolate: RF ; method: syncytia ; value: 0.05 µM
CCCOP(=O)(OCCC)OC[C@H]1O[C@@H](n2cc(C)c(=O)[nH]c2=O)C[C@@H]1N=[N+]=[N-] ; strain or isolate: RF ; method: p24 ; value: >100 µM
COc1ccc(C(=O)O[C@@H](c2cc(O)c(OC)c(OC)c2)[C@H](C)C(C)O)cc1OC ; value: 4.14 µg/mL
O=C(CSc1nnnn1-c1ccccc1C(F)F)Nc1ccccc1[N+](=O)[O-] ; strain or isolate: RT-K103N Y181C ; changes: 1(RT-K103N Y181C) ; method: p24 ; value: ≥0.1 µM
CC(C)=CCC/C(C)=C/CC/C(C)=C/CC/C(C)=C/Cc1cc(O)cc2c1OC(=O)C2 ; strain or isolate: IIIB ; method: syncytia ; value: 3.7 µM
CCCOP(=O)(OCCC)OC[C@H]1O[C@@H](n2cc(C)c(=O)[nH]c2=O)C[C@@H]1O ; strain or isolate: RF ; method: p24 ; value: >100 µM
CN(C)c1nc(Cl)cc(C(C#N)c2c(F)cccc2F)n1 ; strain or isolate: IIIB ; changes: EFV-resistant (K103R V179D P225H) ; method: MTT ; value: >80 µM
C=C(C)[C@@H]1CC[C@]2(C(=O)NCCCCCCCC(=O)N[C@@H](CC(C)C)[C@@H](O)CC(=O)O)CC[C@]3(C)[C@H](CC[C@@H]4[C@@]5(C)CC[C@H](O)C(C)(C)[C@@H]5CC[C@]43C)[C@@H]12 ; strain or isolate: IIIB ; method: cytopathic effect / MTT ; value: 0.27 µM
CCOC(=O)c1nnsc1Nc1ccccc1Nc1snnc1C(=O)OCC ; strain or isolate: NL4-3 ; method: p24 ; value: 15 µM
COC(=O)C[C@H](NP(=O)(N[C@@H](CC(=O)OC)C(=O)OC)OC[C@H]1O[C@@H](n2cc(C)c(=O)[nH]c2=O)C[C@@H]1N=[N+]=[N-])C(=O)OC ; strain or isolate: RF ; method: antigen ; value: 0.9 µM
NNC(=O)c1[nH]c2ccc(Cl)cc2c1S(=O)(=O)c1ccccc1 ; strain or isolate: IIIB ; method: p24 ; value: <0.02 µM
COC(=O)[C@@H](NP(=O)(N[C@H](C(=O)OC)C(C)C)OC[C@H]1O[C@@H](n2cc(C)c(=O)[nH]c2=O)C[C@@H]1N=[N+]=[N-])C(C)C ; strain or isolate: RF ; method: antigen ; value: 0.1 µM
CCN1c2ncc(CCOc3cccc4c3CNC4=O)cc2C(=O)N(C)c2cccnc21 ; strain or isolate: IIIB ; method: p24 ; value: <0.01 µM
CC(=O)Nc1ccc(S(=O)(=O)Oc2ccc(N=Nc3ccc(N=Nc4ccc(OS(=O)(=O)c5ccc(NC(C)=O)cc5)c5ncccc45)cc3)c3cccnc23)cc1 ; strain or isolate: IIIB ; method: syncytia ; value: 19.73 µg/mL
Cc1cn([C@H]2C[C@H](N=[N+]=[N-])[C@@H](CO)O2)c(=O)[nH]c1=O ; strain or isolate: IIIB ; method: syncytia ; value: 0.0024 µg/mL
CC(C)c1ccc(CS(=O)(=O)c2cccc[n+]2[O-])cc1 ; strain or isolate: IIIB ; method: cytopathic effect / MTT ; value: >40 µg/mL
Cc1cc(C)cc(S(=O)(=O)c2c(C(=O)NCC(N)=O)[nH]c3ccc(Cl)cc23)c1 ; strain or isolate: EFV-resistant (RT K103R V179D P225H) ; method: p24 ; value: <0.1 µM
Cc1cn([C@H]2C[C@H](N=[N+]=[N-])[C@@H](CO)O2)c(=O)[nH]c1=O ; strain or isolate: IIIB ; method: syncytia / visual reading ; value: 0.00324 µg/mL
NC(=O)c1[nH]c2ccc(Cl)cc2c1S(=O)(=O)c1ccccc1 ; strain or isolate: EFV-resistant (RT K103R V179D P225H) ; method: p24 ; value: <0.9 µM
Cc1c(Cl)nc(N(C)C)nc1C(C#N)c1c(F)cccc1F ; strain or isolate: IIIB ; changes: EFV-resistant (K103R V179D P225H) ; method: MTT ; value: >34 µM
Cc1ccc(C)c(CS(=O)c2ccc(Cl)c[n+]2[O-])c1 ; strain or isolate: IIIB ; method: cytopathic effect / MTT ; value: >40 µg/mL
CCN1c2ncc(CCOc3ccc(-c4ccc(C(=O)O)cc4)c(Cl)c3)cc2C(=O)N(C)c2cccnc21 ; strain or isolate: IIIB ; method: p24 ; value: 0.01–0.05 µM
CCC(C)[C@H](NC(=O)[C@@H]1CCCN1[P@@](=O)(OC)[C@@H](Cc1ccccc1)NC(=O)[C@H](CC(N)=O)NC(=O)OC(C)(C)C)C(=O)NCC(C)C ; strain or isolate: RF ; value: >100 µM
CC(C)(C)c1ccc(OCc2ccccc2)cc1 ; strain or isolate: IIIB ; method: syncytia ; value: 15.48 µg/mL
COc1ccc(C(=O)OC(c2cc(OC)c(OC)c(OC)c2)[C@H](C)C(C)O)cc1OC ; value: 3.87 µg/mL
CCC(=O)c1cn(S(=O)(=O)c2cccc([N+](=O)[O-])c2)c2cc(C)ccc12 ; strain or isolate: IIIB ; method: syncytia / visual reading ; value: 1.2 µg/mL
CCn1cc(C(=O)O)c(=O)c2cc(F)c(N3CCN(c4ccccc4OC)CC3)c(OC(F)F)c21 ; strain or isolate: IIIB ; method: cytopathic effect / MTT ; value: 0.2 µM
CCN1c2ncc(CCOc3ccc(C(=O)N=c4ccccn4O)cc3C)cc2C(=O)Nc2c(C)ccnc21 ; changes: RT-K103N Y181C ; method: p24 ; value: <0.01 µM
CC(C)(C)c1ccc(-n2nnnc2SCC(=O)Nc2ccccc2Cl)c(Br)c1 ; strain or isolate: RT-K103N Y181C ; changes: 1(RT-K103N Y181C) ; method: luciferase ; value: ≥0.1 µM
CCN1c2ncc(CCOc3cccc4c3CNC(=O)N4)cc2C(=O)N(C)c2cccnc21 ; strain or isolate: IIIB ; method: p24 ; value: <0.01 µM
O=C(CSc1nccn1-c1cccc2ccccc12)Nc1ccccc1[N+](=O)[O-] ; strain or isolate: WT ; method: p24 ; value: <0.05 µM
CCN1c2ncc(CCOc3ccc(-c4cc(C(=O)O)c(C)o4)cc3)cc2C(=O)N(C)c2cccnc21 ; changes: RT-K103N Y181C ; method: p24 ; value: >0.05 µM
CCN1c2ncc(CCOc3cccc4c3CNC4=O)cc2C(=O)Nc2c(C)ccnc21 ; strain or isolate: IIIB ; method: p24 ; value: <0.01 µM
COc1cccc(F)c1C(=O)c1nc(N(C)C)nc(OC)c1C ; strain or isolate: IIIB ; changes: EFV-resistant (K103R V179D P225H) ; method: MTT ; value: >7.8 µM
Cc1cc(C)cc(S(=O)(=O)c2c(C(=O)NCC(=O)NN)[nH]c3ccc(Cl)cc23)c1 ; changes: RT-K103R ; method: cytopathic effect / MTT ; value: <0.1 µM
Cc1c(C(O)c2c(F)cccc2F)nc(N(C)C)[nH]c1=O ; strain or isolate: IIIB ; changes: EFV-resistant (K103R V179D P225H) ; method: MTT ; value: >50 µM
COC(C)(C)/C=C/C[C@](C)(O)C1[C@H](O)C[C@@]2(C)[C@@H]3CC=C4[C@@H](C[C@H](O)[C@@H](O)C4(C)C)[C@]3(C)C(=O)C[C@]12C ; method: cytopathic effect / MTT ; value: 91.8 µM
Cc1c(C(C)c2c(F)cccc2F)nc(N(C)C)[nH]c1=O ; strain or isolate: IIIB ; changes: EFV-resistant (K103R V179D P225H) ; method: MTT ; value: >100 µM
c1ccc(COc2ccccc2)cc1 ; strain or isolate: IIIB ; method: syncytia ; value: 57.99 µg/mL

A second listing of 7 rows from above:

SMILES	strain or isolate	changes	method	value
CCN1c2ncc(CCOc3cccc4c3CNC(=O)N4)cc2C(=O)N(C)c2cccnc21	IIIB	-	p24	<0.01 µM
CC[C@@H](C)[C@H](NC(=O)[C@@H]1CCCN1[P@](=O)(OC)[C@@H](Cc1ccccc1)NC(=O)[C@H](CC(N)=O)NC(=O)OC(C)(C)C)C(=O)NCC(C)C	RF	-	-	>100 µM
CC1=C[C@@H]([C@H]2O[C@@H]3Cc4c(ccc5c4C=C[C@H]4C(C)(C)O[C@@H]6CC(=O)O[C@@]64C5)[C@@H]3[C@@H]2C)OC1=O	IIIB	-	syncytia	9.75 µg/mL
NC(=O)c1[nH]c2ccc(Cl)cc2c1S(=O)(=O)c1ccccc1	EFV-resistant (RT K103R V179D P225H)	-	p24	<0.9 µM
CC(C)(C)NC(=O)[C@@H]1C[C@@H]2CCCC[C@@H]2CN1C[C@H](O)CNC(=O)[C@@H]1N[C@@H]([C@H](NC(=O)Cc2ccccc2)C(=O)NCc2ccccc2)SC1(C)C	RF	-	syncytia	0.05 µM
CCN1c2ncc(CCOc3cccc4c3CNC4=O)cc2C(=O)N(C)c2cccnc21	IIIB	-	p24	<0.01 µM
Cc1c(C(C)c2c(F)cccc2F)nc(N(C)C)[nH]c1=O	IIIB	EFV-resistant (K103R V179D P225H)	MTT	>100 µM

An empty or dashed field is not shown. a–b is a range or a potency band. Neighbouring rows are from separate reports.